US20140377289A1, “Metallodrugs Having Improved Pharmacological Properties, and Methods of Manufacture and Use Thereof” (MetalloPharm, LLC, priority 2011, published 2014)
Like-named read-outs stand apart in the source and are kept apart here. Where a SMILES comes first, the peptide text is derived from it.

Tested on: HCV RNA replicon in ET (luc-ubi-neo/ET) Huh7 cells
Conditions: TC50/IC50

Row | Compound | selectivity index SI50 | selectivity index SI50 (listed as Cu-GGHYrFK-NH2)
1 | N=C(N)NCCC[C@@H](NC(=O)[C@@H](N)Cc1ccc(O)cc1)C(=O)N[C@@H](Cc1ccccc1)C(=O)N[C@@H](CCCCN)C(N)=O [YrFK, reference compound] | 1 | 
2 | Cu-GGHGKYKETDLLILFKDDYFAKKNEERK | >55 | 
3 | Cu-GGHGYrFK | >72 | 
4 | Cu-GGHKYKETDLLILFKDDYFAKKNEERKYGRKKRRQRRR | >60 | 
5 | Cu-GGHGAALEAKICHQIEYYFGDF | 8.4 | 
6 | Cu-GGHGYrFKGGGYGRKKRRQRRR | 101 | 
7 | Cu-GGHAALEAKICHQIEYYFGDF | 12 | 
8 | Cu complex of ATCUN peptide GGHYrFK, C-terminal amidated; targets stem-loop IIb of HCV IRES RNA [Cu-GGHYrFK-amide] |  | > 172
9 | Cu-GGHGYrFKGGGKDEL | >110 | 
10 | CC[C@H](C)[C@H](NC(=O)[C@H](CCCCN)NC(=O)[C@H](C)NC(=O)[C@H](CCC(=O)O)NC(=O)[C@H](CC(C)C)NC(=O)[C@H](C)NC(=O)[C@H](C)N)C(=O)N[C@@H](CS)C(=O)N[C@@H](Cc1c[nH]cn1)C(=O)N[C@@H](CCC(N)=O)C(=O)N[C@H](C(=O)N[C@@H](CCC(=O)O)C(=O)N[C@@H](Cc1ccc(O)cc1)C(=O)N[C@@H](Cc1ccc(O)cc1)C(=O)N[C@@H](Cc1ccccc1)C(=O)NCC(=O)N[C@@H](CC(=O)O)C(=O)N[C@@H](Cc1ccccc1)C(N)=O)[C@@H](C)CC [reference compound] (H-AALEAKICHQIEYYFGDF-NH2) | 1 | 
11 | CC[C@H](C)[C@H](NC(=O)[C@H](CC(C)C)NC(=O)[C@H](CC(C)C)NC(=O)[C@H](CC(=O)O)NC(=O)[C@@H](NC(=O)[C@H](CCC(=O)O)NC(=O)[C@H](CCCCN)NC(=O)[C@H](Cc1ccc(O)cc1)NC(=O)[C@@H](N)CCCCN)[C@@H](C)O)C(=O)N[C@@H](CC(C)C)C(=O)N[C@@H](Cc1ccccc1)C(=O)N[C@@H](CCCCN)C(=O)N[C@@H](CC(=O)O)C(=O)N[C@@H](CC(=O)O)C(=O)N[C@@H](Cc1ccc(O)cc1)C(=O)N[C@@H](Cc1ccccc1)C(=O)N[C@@H](C)C(=O)N[C@@H](CCCCN)C(=O)N[C@@H](CCCCN)C(=O)N[C@@H](CC(N)=O)C(=O)N[C@@H](CCC(=O)O)C(=O)N[C@@H](CCC(=O)O)C(=O)N[C@@H](CCCNC(=N)N)C(=O)N[C@@H](CCCCN)C(N)=O [reference compound] (H-KYKETDLLILFKDDYFAKKNEERK-NH2) | 1 | 
12 | Cu-GGHGKYKETDLLILFKDDYFAKKNEERKKDEL | >67 | 
13 | Cu-GGHYrFKGGGYGRKKRRQRRR | 62 | 
